Compound potency records, mixed from different reports. Data source: NIAID ChemDB in PubChem.

Common to all: tests on isolated targets; species: HIV-1; protein: Protease; measure: IC50

ICn is the concentration giving n% inhibition.

| compound | method | value |
|---|---|---|
| CCC(=O)O[C@H]1CC[C@]2(C)[C@H]3CC=C4[C@@H]5CC(C)(C)CC[C@]5(C(=O)O)CC[C@@]4(C)[C@]3(C)CC[C@H]2C1(C)C | FRET | >1200 µg/mL |
| CC(C)c1nc(CN(C)C(=O)N[C@H](C(=O)NN(Cc2ccccc2)C[C@H](O)[C@H](Cc2ccccc2)NC(=O)OCc2ccccc2)C(C)C)cs1 | fluorescence | <0.0005 µM |
| CC[C@H](C)[C@H](NC(=O)[C@H](Cc1ccccc1)NC(C)=O)C(=O)N[C@@H](Cc1ccccc1)[C@H](O)[C@@H](O)[C@H](Cc1ccccc1)NC(=O)[C@H](CCC(=O)O)NC(=O)[C@H](Cc1ccccc1)NC(C)=O | substrate cleavage | 0.012 µM |
| CC(=O)N(CC[C@@H](O)[C@H](Cc1ccccc1)NC(=O)c1cccc(O)c1C)[C@@H](Cc1ccccc1)C(=O)NCc1ccccc1C | - | 1.8 µM |
| C=C(C)[C@H]1CC[C@]2(C)[C@H]3CC[C@@H]4[C@@]5(C)C[C@H](OC(C)=O)C[C@](C)(C(=O)O)[C@@H]5CC[C@@]4(C)[C@]3(C)CC[C@@H]12 | HPLC | 1.7 µM |
| CC(C)c1nc(CN(C)C(=O)N[C@H](C(=O)NN(Cc2ccccc2)C[C@H](O)[C@H](Cc2ccccc2)NC(=O)OCc2cncs2)C(C)C)co1 | fluorescence | <0.0005 µM |
| CC(=O)O[C@H]1CC[C@]2(C)[C@H]3CC=C4[C@@H]5CC(C)(C)CC[C@]5(C(=O)OCc5ccccc5)CC[C@@]4(C)[C@]3(C)CC[C@H]2C1(C)C | FRET | >1200 µg/mL |
| COC(=O)N1C2C3(CO)C(c4ccccc4)C4(CO)C1C1(CO)C(c5ccccc5)C2(CO)C3N(C(=O)OC)C41 | - | >50 µM |
| CC1(C)CC[C@]2(C(=O)O)CC[C@]3(C)C(=CC[C@@H]4[C@@]5(C)CC[C@H](OC(=O)c6ccccc6)C(C)(C)[C@@H]5CC[C@]43C)[C@@H]2C1 | FRET | >1200 µg/mL |
| CC(=O)N[C@@H](Cc1c[nH]c2ccccc12)C(=O)N[C@H](C(=O)N[C@@H](Cc1ccccc1)[C@H](O)[C@@H](O)[C@H](Cc1ccccc1)NC(=O)[C@@H](NC(=O)[C@H](Cc1c[nH]c2ccccc12)NC(C)=O)C(C)C)C(C)C | substrate cleavage | 0.006 µM |
| CC(C)[C@H](NC(=O)C1Cc2ccccc2CN1)C(=O)N[C@@H](CC1CCCCC1)[C@@H](O)CC(=O)N[C@@H](C)C(=O)N[C@@H](Cc1ccccc1)C(N)=O | HPLC | 0.017 µM |
| CC(C)CC(NC(=O)[C@H](C)NC(=O)C[C@H](O)C(CC(C)C)NC(=O)[C@@H](NC(=O)[C@H](Cc1ccc(O)cc1)NC(=O)OCc1ccccc1)C(C)C)[C@@H](O)CC(=O)Nc1ccn([C@H]2CS[C@@H](CO)O2)c(=O)n1 | HPLC | 0.2 µM |
| CC(O)[C@H](NC(=O)CCCCCCCCCCCCCCC(=O)N[C@@H](CC(N)=O)C(=O)N[C@@H](Cc1ccccc1)C(=O)O)C(=O)N[C@@H](CC1CCCCC1)C(=O)N[C@@H](Cc1ccccc1)C(N)=O | - | 1.55 µM |
| CC(C)C[C@H](NC(=O)C[C@H](O)[C@H](CC1CCCCC1)NC(=O)[C@H](C)NC(=O)C1Cc2ccccc2CN1)C(=O)N[C@@H](Cc1ccccc1)C(N)=O | HPLC | 0.09 µM |
| CC(C)CC(NC(=O)[C@@H](NC(=O)[C@H](Cc1c[nH]c2ccccc12)NC(=O)CCCCC(=O)Nc1ccn([C@H]2CS[C@@H](CO)O2)c(=O)n1)C(C)C)[C@@H](O)CC(=O)NC(Cc1ccccc1)c1ccccc1 | HPLC | 0.4 µM |
| C[C@@]12CCC[C@@](C)(C(=O)O)[C@H]1CC[C@@]13C[C@@H](CC[C@H]12)[C@](O)(CO)C3 | HPLC | >300 µM |
| CC(=O)N(CC[C@@H](O)[C@H](Cc1ccccc1)NC(=O)c1cccc(O)c1C)[C@@H](Cc1ccccc1)C(=O)NCc1ccccc1 | - | 1.5 µM |
| COc1ccc(C2C3(CO)C4N(C(C)=O)C5C2(CO)C2N(C(C)=O)C3C4(CO)C(c3ccc(OC)cc3)C52CO)cc1 | - | >25 µM |
| CC(=O)N(CC[C@@H](O)[C@H](Cc1ccccc1)NC(=O)c1cccc(O)c1C)[C@@H](Cc1ccc(O)cc1)C(=O)NC(C)(C)C | - | >100 µM |
| O=C(COc1ccccc1)N[C@@H](Cc1ccccc1)[C@@H](O)[C@H](O)[C@H](Cc1ccccc1)NC(=O)COc1ccccc1 | substrate cleavage | 2 µM |
| CC(C)c1nc(CN(C)C(=O)N[C@H](C(=O)NN(Cc2cccc(O)c2)C[C@H](O)[C@H](Cc2ccccc2)NC(=O)OCc2cncs2)C(C)C)cs1 | fluorescence | ~0.0005 µM |
| CC(C)C[C@H](NC(=O)[C@@H](NC(=O)CCCCCCCCCCCCCCC(=O)N[C@@H](CC(N)=O)C(=O)N[C@@H](Cc1ccc2ccccc2c1)C(=O)O)C(C)O)C(=O)N[C@@H](Cc1ccccc1)C(N)=O | - | 5.2 µM |
| CC1(C)CC[C@]2(C(=O)OCc3ccccc3)CC[C@]3(C)C(=CC[C@@H]4[C@@]5(C)CC[C@H](OC(=O)CCC(=O)O)C(C)(C)[C@@H]5CC[C@]43C)[C@@H]2C1 | FRET | >1200 µg/mL |
| CC(C)CC(NC(=O)[C@@H](NC(=O)[C@H](Cc1c[nH]c2ccccc12)NC(=O)CCCCC(=O)Nc1ccn([C@H]2CS[C@@H](CO[Si](c3ccccc3)(c3ccccc3)C(C)(C)C)O2)c(=O)n1)C(C)C)[C@@H](O)CC(=O)NC(Cc1ccccc1)c1ccccc1 | HPLC | 0.45 µM |
| CCC(=O)O[C@@H]1C[C@]2(C)[C@H]3CC=C4[C@@H]5CC(C)(C)CC[C@]5(C(=O)OCc5ccccc5)CC[C@@]4(C)[C@]3(C)CC[C@H]2C(C)(C)[C@H]1OC(=O)CC | FRET | >1200 µg/mL |
| CC(C)(C)OC(=O)N[C@H](Cc1ccc(O)cc1)/C(O)=C(\C#N)c1c(F)c(F)c(F)c(F)c1F | HPLC | 3.5 µM |
| CC(C)CCCC(C)[C@H]1CCC2C3CC[C@H]4C[C@@H](CCC=C(c5cc(Cl)c(OCc6ccccc6B(O)O)c(C(=O)O)c5)c5cc(Cl)c(OCc6ccccc6B(O)O)c(C(=O)O)c5)CC[C@]4(C)C3CC[C@@]21C | - | 0.0014 µM |
| CC(C)c1nc(CN(C)C(=O)N[C@H](C(=O)NN(Cc2ccc(O)cc2)C[C@H](O)[C@H](Cc2ccccc2)NC(=O)OCc2cncs2)C(C)C)cs1 | fluorescence | <0.0005 µM |
| CC(C)CCCC(C)[C@H]1CCC2C3CC[C@H]4C[C@@H](CCC=C(c5cc(Cl)c(OCc6cccc(B(O)O)c6)c(C(=O)O)c5)c5cc(Cl)c(OCc6cccc(B(O)O)c6)c(C(=O)O)c5)CC[C@]4(C)C3CC[C@@]21C | - | <0.00025 µM |
| CC(C)C[C@H](NC(=O)[C@H](C)NC(=O)C[C@H](O)[C@H](CC(C)C)NC(=O)[C@@H](NC(=O)[C@H](Cc1ccc(O)cc1)NC(=O)OCc1ccccc1)C(C)C)[C@@H](O)CC(=O)O | HPLC | 0.06 µM |
| CC(C)[C@@H](/C=C/C(=O)O)NC(=O)c1cc2ccccc2c(-c2c(O)c(C(=O)N[C@H](/C=C/C(=O)O)C(C)C)cc3ccccc23)c1O | - | 13 µM |
| CC(=O)N(CC[C@@H](O)[C@H](Cc1ccccc1)NC(=O)c1cccc(O)c1C)[C@@H](Cc1ccccc1)C(=O)N1CCCC1 | - | 5 µM |
| CC(C)C[C@H](NC(=O)[C@H](CCS(C)(=O)=O)NC(=O)CCCCCCCCCCCCCCC(=O)N[C@@H](CC(N)=O)C(=O)N[C@@H](Cc1ccccc1)C(=O)O)C(=O)N[C@@H](Cc1ccccc1)C(N)=O | - | 1.9 µM |
| COc1ccc(CN(C[C@H](O)[C@H](Cc2ccccc2)NC(=O)[C@@H](NC(=O)OCc2ccccn2)C(C)C)NC(=O)OC(C)(C)C)cc1 | fluorescence | ~0.0005 µM |
| COc1ccc(C2C3(CO)C4N(C(=O)OC(C)(C)C)C5C2(CO)C2N(C(=O)OC(C)(C)C)C3C4(CO)C(c3ccc(OC)cc3)C52CO)cc1 | - | >50 µM |
| CC1(C)CC[C@]2(C(=O)OCc3ccccc3)CC[C@]3(C)C(=CC[C@@H]4[C@@]5(C)CC[C@H](OC(=O)c6ccccc6)C(C)(C)[C@@H]5CC[C@]43C)[C@@H]2C1 | FRET | >1200 µg/mL |
| COc1ccc(C2C3(CO)C4N(C(=O)Oc5ccccc5)C5C2(CO)C2N(C(=O)Oc6ccccc6)C3C4(CO)C(c3ccc(OC)cc3)C52CO)cc1 | - | >50 µM |
| CC(=O)O[C@@H]1[C@@H](O)C(Oc2c(-c3ccc(O)cc3)oc3cc(OC4O[C@@H](O)[C@H](O)[C@H](O)[C@H]4O)cc(O)c3c2=O)OC(O)[C@@H]1OC(C)=O | HPLC | >300 µM |
| CC(C)c1nc(CN(C)C(=O)N[C@H](C(=O)NN(Cc2ccoc2)C[C@H](O)[C@H](Cc2ccccc2)NC(=O)OCc2cncs2)C(C)C)cs1 | fluorescence | <0.0005 µM |
| CC1(C)CC[C@]2(C(=O)OCc3ccccc3)CC[C@]3(C)C(=CC[C@@H]4[C@@]5(C)CC[C@H](OC(=O)CCCC(=O)O)C(C)(C)[C@@H]5CC[C@]43C)[C@@H]2C1 | FRET | >1200 µg/mL |
| CC(C)(C)OC(=O)N1C2C3(CO)C(c4ccccc4)C4(CO)C1C1(CO)C(c5ccccc5)C2(CO)C3N(C(=O)OC(C)(C)C)C41 | - | ~25 µM |
| CC(C)C[C@H](NC(=O)[C@@H](NC(=O)CCCCCCCCCCCCCCC(=O)N[C@H](C(=O)N[C@@H](Cc1ccccc1)C(=O)O)C(C)C)C(C)O)C(=O)N[C@@H](Cc1ccccc1)C(N)=O | - | 3.5 µM |
| O=Cc1ccc(O)c(O)c1 | HPLC | 27.5 µM |
| CC(C)C[C@H](NC(=O)[C@H](CS(C)(=O)=O)NC(=O)CCCCCCCCCCCCCCC(=O)N[C@@H](CC(N)=O)C(=O)N[C@@H](Cc1ccccc1)C(=O)O)C(=O)N[C@@H](Cc1ccccc1)C(N)=O | - | 1.97 µM |
| CC(=O)N(CC[C@@H](O)[C@H](Cc1ccccc1)NC(=O)c1cccc(O)c1C)[C@@H](Cc1ccccc1)C(=O)NC(C)(C)C | - | 0.09 µM |
| O=C(O)N[C@@H](Cc1c[nH]c2ccccc12)C(=O)N[C@@H](Cc1ccccc1)[C@@H](O)[C@H](O)[C@H](Cc1ccccc1)NC(=O)[C@H](Cc1c[nH]c2ccccc12)NC(=O)O | substrate cleavage | 25 µM |
| Cc1ccc(S(=O)(=O)N(CC[C@@H](O)[C@H](Cc2ccccc2)NC(=O)c2cccc(O)c2C)C(C)C)cc1 | - | 1.5 µM |
| CC(C)[C@H](NC(=O)OCC1c2ccccc2-c2ccccc21)C(=O)N[C@@H](Cc1ccccc1)[C@H](O)[C@@H](O)[C@H](Cc1ccccc1)NC(=O)[C@@H](NC(=O)[C@H](Cc1c[nH]c2ccccc12)NC(=O)OC1c2ccccc2-c2ccccc21)C(C)C | substrate cleavage | 4 µM |
| CCCC(=O)O[C@@H]1C[C@]2(C)[C@H]3CC=C4[C@@H]5CC(C)(C)CC[C@]5(C(=O)OCc5ccccc5)CC[C@@]4(C)[C@]3(C)CC[C@H]2C(C)(C)[C@H]1OC(=O)CCC | FRET | >1200 µg/mL |
| CC(C)[C@@H](/C=C/C(=O)O)NC(=O)c1cc2ccccc2c(Cc2c(O)c(C(=O)N[C@H](/C=C/C(=O)O)C(C)C)cc3ccccc23)c1O | - | 8 µM |
| C[C@@H](O)[C@H](NC(=O)Oc1ccccc1)C(=O)N[C@@H](Cc1ccccc1)[C@H](O)[C@@H](O)[C@H](Cc1ccccc1)NC(=O)c1cc(=O)c2ccccc2[nH]1 | substrate cleavage | 0.5 µM |

The last 3 rows once more:

{"compound": "CCCC(=O)O[C@@H]1C[C@]2(C)[C@H]3CC=C4[C@@H]5CC(C)(C)CC[C@]5(C(=O)OCc5ccccc5)CC[C@@]4(C)[C@]3(C)CC[C@H]2C(C)(C)[C@H]1OC(=O)CCC", "method": "FRET", "value": ">1200 µg/mL"}
{"compound": "CC(C)[C@@H](/C=C/C(=O)O)NC(=O)c1cc2ccccc2c(Cc2c(O)c(C(=O)N[C@H](/C=C/C(=O)O)C(C)C)cc3ccccc23)c1O", "value": "8 µM"}
{"compound": "C[C@@H](O)[C@H](NC(=O)Oc1ccccc1)C(=O)N[C@@H](Cc1ccccc1)[C@H](O)[C@@H](O)[C@H](Cc1ccccc1)NC(=O)c1cc(=O)c2ccccc2[nH]1", "method": "substrate cleavage", "value": "0.5 µM"}

Lines come from different laboratories, so protocols vary. Blank or dashed fields: not listed here.